Pooled drug test results. Numbers come from NIAID ChemDB, via PubChem.

Common to all: tests in culture; species: HIV-1; measure: EC50

Two numbers with a dash give a range or band. Blank or dashed fields: not listed here. Neighbouring rows are from separate reports. ECn: concentration that inhibits the pathogen or its effect by n%.

structure	cells	method	strain or isolate	changes	value
Cc1ccnc2c1NC(=O)c1cccnc1N2C1CC1	MT-4	MTT	IIIB		0.14 µM
CCCCCCCCCCCCOC1OC(COS(=O)(=O)O)C(OS(=O)(=O)O)C(OC2OC(COS(=O)(=O)O)C(OS(=O)(=O)O)C(OC3OC(COS(=O)(=O)O)C(OS(=O)(=O)O)C(OC4OC(COS(=O)(=O)O)C(OS(=O)(=O)O)C(OC5OC(COS(=O)(=O)O)C(OS(=O)(=O)O)C(OS(=O)(=O)O)C5OS(=O)(=O)O)C4OS(=O)(=O)O)C3OS(=O)(=O)O)C2OS(=O)(=O)O)C1OS(=O)(=O)O	MT-4	cytopathic effect / MTT	IIIB		0.18 µg/mL
CO[C@H]1O[C@@H](n2ccc(=O)[nH]c2=O)C[C@@H]1N=[N+]=[N-]	PBMC	RT activity	LAV		0.2 µM
Cc1cc(C(O)CNC(C)CCn2cnc3c2c(=O)n(C)c(=O)n3C)ccc1O	H9	luminescence	NL4-3		7.96 µM
Nn1cc(C(=O)O)c(=O)c2cc(O)c(N3CCN(c4ccccn4)CC3)cc21	MT-4	MTT	IIIB		28.44 µM
COC(=O)[C@H](C)NP(=O)(OC[C@@H]1C=C[C@H](n2cc(C)c(=O)[nH]c2=O)O1)Oc1ccc(Br)cc1Cl	PBMC	p24	RTMDR	RT M41L L74V T215Y V106N	0.234 µM
Cc1cc(C#N)cc(C)c1Oc1nc(Nc2ccc(C#N)cc2)ncc1SCC(=O)NC1CC1	MT-4	MTT		E138K	0.0102 µM
Cc1nc(C)c(CNCC[C@@]23CC[C@]4(C)[C@H](CC[C@@H]5[C@@]6(C)CC[C@H](OC(=O)[C@H]7C[C@@H](C(=O)O)C7(C)C)C(C)(C)[C@@H]6CC[C@]54C)C2=C(C(C)C)C(=O)C3)s1	MT-2	p24 / ELISA	92HT599		<1 µM
c1ccc(CNCc2ccc(CN3CCCNCCNCCCNCC3)cc2)nc1			RF		0.001–0.01 µg/mL
C=Cn1cc(C(=O)O)c(=O)c2ccc(N3CCN(c4cccc(C(F)(F)F)c4)CC3)cc21	PBMC		IIIB		0.84 µM
C#CCOCn1c(Cc2cc(C(F)(F)F)cc(C(F)(F)F)c2)c(CC)c(=O)[nH]c1=O	MT-4	MTT	EFV-resistant (K103R V179D P225H)		>100 µM
CC(C)OC(=O)c1cc(NC(=S)OC(C)C)ccc1Cl	CEM	syncytia	IIIB	RT-Y188H	2.1 µM
O=S(=O)(O)Oc1cc2c(ccn2S(=O)(=O)O)c(Cl)c1O	CEM + CEM-SS	cytopathic effect / XTT			10.7 µg/mL
CC(C)(C)C1=NC(c2ccccc2)(C(F)(F)F)NC(=O)N1	CEM	p24 / ELISA	HXB2		0.2829 µM
Cc1cc(C#N)cc(C)c1Oc1nc(Nc2ccc(C#N)cc2)ncc1SCC(=O)NCc1ccc(O)cc1	MT-4	MTT		L100I	0.0402 µM
C=C(C)COCn1c(Cc2c(F)c(F)cc(F)c2F)c(CC)c(=O)[nH]c1=O	MT-4	MTT	A17	K103N + Y181C	>38 µM
Cn1cc(C(=O)O)c(=O)c2cncc(N3CCN(c4nc5ccccc5s4)CC3)c21	MT-4	MTT	IIIB		>25.57 µM
O=c1[nH]c(=O)n([C@H]2C[C@H](O)[C@@H](CO)O2)cc1CO	PBMC	RT activity			2.5 µg/mL
Cn1cc(C(=O)O)c(=O)c2cc(N)c(N3CCN(c4nc5ccccc5s4)CC3)nc21	MT-4	MTT	IIIB		>0.029 µM
CC12CCC[C@@]3(COC1=O)C1CC[C@@H]4C[C@@]1(CC[C@H]23)C[C@@]4(C)O	H9	p24	IIIB		3.1 µM
COC(=O)[C@H](C)NP(=O)(OC[C@@H]1C=C[C@H](n2cc(C)c(=O)[nH]c2=O)O1)Oc1ccc(Cl)cc1	PBMC	p24	RTMDR	RT M41L L74V T215Y V106N	0.062 µM
CC(C)C1=C2[C@H]3CC[C@@H]4[C@@]5(C)CC[C@H](OC(=O)[C@H]6C[C@@H](C(=O)O)C6(C)C)C(C)(C)[C@@H]5CC[C@@]4(C)[C@]3(C)CC[C@@]2([C@@H](O)CNCC2CCNCC2)CC1=O	MT-2	p24 / ELISA	92HT599		<1 µM
O=S(=O)(O)OCCCCCCCCCCCCO[C@@H]1O[C@H](COS(=O)(=O)O)[C@@H](OS(=O)(=O)O)[C@H](O[C@@H]2O[C@H](COS(=O)(=O)O)[C@@H](OS(=O)(=O)O)[C@H](O[C@@H]3O[C@H](COS(=O)(=O)O)[C@@H](OS(=O)(=O)O)[C@H](O[C@@H]4O[C@H](COS(=O)(=O)O)[C@@H](OS(=O)(=O)O)[C@H](O[C@@H]5O[C@H](COS(=O)(=O)O)[C@@H](OS(=O)(=O)O)[C@H](OS(=O)(=O)O)[C@H]5OS(=O)(=O)O)[C@H]4OS(=O)(=O)O)[C@H]3OS(=O)(=O)O)[C@H]2OS(=O)(=O)O)[C@H]1OS(=O)(=O)O	MT-4	cytopathic effect / MTT	IIIB		18 µg/mL
Nn1cc(C(=O)O)c(=O)c2ccc(N3CCN(c4ccccn4)CC3)nc21	MT-4	MTT	IIIB		12.01 µM
O=C(Nc1sc2c(c1C(=O)Nc1ccccn1)CCCCC2)c1ccc(O)c(O)c1	MT-4	MTT / absorbance	IIIB		>30.69 µM
COc1ccc2c(c1)N(C(=O)OC(C)C)[C@@H](CSC)C(=S)N2	H9	p24	MN		0.006 µM
COC(=O)[C@H](C)NP(=O)(OC[C@@H]1C=C[C@H](n2cc(C)c(=O)[nH]c2=O)O1)Oc1c(OC)cccc1OC	PBMC	p24	IIIB WT		0.006 µM
CC(C)C1=C2[C@H]3CC[C@@H]4[C@@]5(C)CC[C@H](OC(=O)[C@H]6C[C@@H](C(=O)O)C6(C)C)C(C)(C)[C@@H]5CC[C@@]4(C)[C@]3(C)CC[C@@]2(CC(=O)NCC2CCNCC2)CC1=O	MT-2	p24 / ELISA	92HT599		<1 µM
C[C@@H]1O[C@H]2O[C@H]3[C@@H](OC[C@@H](O)[C@@H]3O)OC(=O)[C@]34CCC(C)(C)C[C@@]3(C)C3=CC[C@@]5(C)[C@@](C)(CC[C@@H]6[C@](C)(CO)[C@@H](O[C@@H]7O[C@H](CO)[C@@H](O)[C@H](O)[C@H]7O[C@@H]7O[C@@H](C(=O)C[C@](C)(O)CC(=O)O[C@@H]1[C@@H](O[C@@H]1OC[C@@H](O)[C@H](O)[C@H]1O)[C@H]2O)[C@H](O)[C@H](O)[C@H]7O)[C@@H](O)C[C@@]65C)[C@]3(C)CC4	H9	absorbance	IIIB		22.9 µg/mL
CC1=C(C(=O)Nc2ccc(Cl)c(C(=O)OC(C)C)c2)SCCO1	CEM	syncytia	IIIB	RT-L100I	>112 µM
Cc1ccc(NC(=O)COc2nsnc2-c2cccc3ccccc23)c([N+](=O)[O-])c1	MT-4	MTT	IIIB		>29 µM
CCOCn1c(Cc2cccc(C(F)(F)F)c2)c(C(C)C)c(=O)[nH]c1=O	MT-4	MTT	N119 (Y181C)		1.5 µM
Cn1cc(C(=O)O)c(=O)c2ccc(N3CCN(c4ccccn4)CC3)nc21	MT-4	MTT	IIIB		0.06 µM
O=C(COc1nsnc1-c1cccc2ccccc12)Nc1ccc(Cl)cc1Cl	MT-4	MTT	IIIB		>116 µM
Fc1ccc(OCCC(Cn2ccnc2)c2ccc(Cl)cc2Cl)cc1	H9	luminescence	NL4-3		8.63 µM
CCc1c(-c2coc(CC/C(C)=C/c3ccccc3)n2)oc(OC)c(C)c1=O	MT-4	cytopathic effect / thymidine uptake	IIIB		<0.00066 µM
CCOC(=O)c1ccc(NC(=O)COc2nsnc2-c2cccc3ccccc23)cc1	MT-4	MTT	IIIB		>85 µM
CC(C)C1=C2[C@H]3CC[C@@H]4[C@@]5(C)CC[C@H](OC(=O)[C@H]6C[C@@H](C(=O)O)C6(C)C)C(C)(C)[C@@H]5CC[C@@]4(C)[C@]3(C)CC[C@@]2(CCNCc2cccc(Cl)c2)CC1=O	MT-2	p24 / ELISA	92HT599		<1 µM
Nc1cc2c(=O)c(C(=O)O)cn(N)c2cc1N1CCN(c2ccccn2)CC1	MT-4	MTT	IIIB		2.23 µM
C=C(C)COCn1c(Cc2cccc(F)c2)c(CC)c(=O)[nH]c1=O	MT-4	MTT	N119 (Y181C)		24 µM
C=Cn1cc(C(=O)O)c(=O)c2ccc(N3CCN(c4ccccn4)CC3)nc21	MT-4	MTT	IIIB		0.16 µM
COCCNC(=O)CSc1cnc(Nc2ccc(C#N)cc2)nc1Oc1c(C)cc(C#N)cc1C	MT-4	MTT		F227L V106A	0.1535 µM
CCCCCCCCCCO[C@@H]1O[C@H](COS(=O)(=O)O)[C@@H](OS(=O)(=O)O)[C@H](O[C@@H]2O[C@H](COS(=O)(=O)O)[C@@H](OS(=O)(=O)O)[C@H](O[C@@H]3O[C@H](COS(=O)(=O)O)[C@@H](OS(=O)(=O)O)[C@H](O[C@@H]4O[C@H](COS(=O)(=O)O)[C@@H](OS(=O)(=O)O)[C@H](OS(=O)(=O)O)[C@H]4OS(=O)(=O)O)[C@H]3OS(=O)(=O)O)[C@H]2OS(=O)(=O)O)[C@H]1OS(=O)(=O)O	MT-4	cytopathic effect / MTT	IIIB		9 µg/mL
CC(C)C1=C2[C@H]3CC[C@@H]4[C@@]5(C)CC[C@H](OC(=O)[C@H]6C[C@@H](C(=O)O)C6(C)C)C(C)(C)[C@@H]5CC[C@@]4(C)[C@]3(C)CC[C@@]2([C@@H](O)CNCc2ccccn2)CC1=O	MT-2	p24 / ELISA	92HT599		<1 µM
C=CCNC(=O)CSc1cnc(Nc2ccc(C#N)cc2)nc1Oc1c(C)cc(C#N)cc1C	MT-4	MTT		Y181C	0.0227 µM
CCCCCCCCCCCCO[C@@H]1O[C@H](COS(=O)(=O)O)[C@@H](OS(=O)(=O)O)[C@H](O[C@@H]2O[C@H](COS(=O)(=O)O)[C@@H](OS(=O)(=O)O)[C@H](O[C@@H]3O[C@H](COS(=O)(=O)O)[C@@H](OS(=O)(=O)O)[C@H](O[C@@H]4O[C@H](COS(=O)(=O)O)[C@@H](OS(=O)(=O)O)[C@H](OS(=O)(=O)O)[C@H]4OS(=O)(=O)O)[C@H]3OS(=O)(=O)O)[C@H]2OS(=O)(=O)O)[C@H]1OS(=O)(=O)O	MT-4	cytopathic effect / MTT	IIIB		5.8 µg/mL
Cc1cc(C#N)cc(C)c1Oc1nc(Nc2ccc(C#N)cc2)ncc1SCC(=O)NCCN1CCN(C(=O)OC(C)(C)C)CC1	MT-4	MTT		F227L V106A	0.893 µM
CC(C)C1=C2[C@H]3CC[C@@H]4[C@@]5(C)CC[C@H](OC(=O)[C@H]6C[C@@H](C(=O)O)C6(C)C)C(C)(C)[C@@H]5CC[C@@]4(C)[C@]3(C)CC[C@@]2(CC(=O)NC[C@@H](NC(=O)c2ccc(Cl)cc2)C(C)O)CC1=O	MT-2	p24 / ELISA	92HT599		<1 µM
Cc1cc(C#N)cc(C)c1Oc1nc(Nc2ccc(C#N)cc2)ncc1SCC(=O)NC1CCN(C(=O)OC(C)(C)C)CC1	MT-4	MTT		E138K	0.0488 µM
C=Cn1cc(C(=O)O)c(=O)c2ccc(N3CCN(c4nc5ccccc5s4)CC3)nc21	MT-4	MTT	IIIB		0.02 µM
Nn1cc(C(=O)O)c(=O)c2ccc(N3CCN(c4cccc(C(F)(F)F)c4)CC3)cc21	MT-4	MTT	IIIB		>0.69 µM
Cc1cc(C#N)cc(C)c1Oc1nc(Nc2ccc(C#N)cc2)ncc1SCC(N)=O	MT-4	MTT		K103N	0.0218 µM
CC(Oc1nsnc1-c1cccc2ccccc12)C(=O)Nc1ccccc1F	MT-4	MTT	IIIB		22 µM
Cc1cc(C#N)cc(C)c1Oc1nc(Nc2ccc(C#N)cc2)ncc1SCC(=O)NCCN1CCOCC1	MT-4	MTT		F227L V106A	0.2216 µM
Cn1cc(C(=O)O)c(=O)c2ncc(N3CCN(c4nc5ccccc5s4)CC3)cc21	MT-4	MTT	IIIB		>119 µM

The last 5 rows once more:

structure,cells,method,strain or isolate,changes,value
Nn1cc(C(=O)O)c(=O)c2ccc(N3CCN(c4cccc(C(F)(F)F)c4)CC3)cc21,MT-4,MTT,IIIB,,>0.69 µM
Cc1cc(C#N)cc(C)c1Oc1nc(Nc2ccc(C#N)cc2)ncc1SCC(N)=O,MT-4,MTT,,K103N,0.0218 µM
CC(Oc1nsnc1-c1cccc2ccccc12)C(=O)Nc1ccccc1F,MT-4,MTT,IIIB,,22 µM
Cc1cc(C#N)cc(C)c1Oc1nc(Nc2ccc(C#N)cc2)ncc1SCC(=O)NCCN1CCOCC1,MT-4,MTT,,F227L V106A,0.2216 µM
Cn1cc(C(=O)O)c(=O)c2ncc(N3CCN(c4nc5ccccc5s4)CC3)cc21,MT-4,MTT,IIIB,,>119 µM